Pooled drug test results. Numbers come from NIAID ChemDB, via PubChem.

Common to all: growth or infection tests; agent: Candida albicans; measure: MIC80

Lines come from different laboratories, so protocols vary.

structure,strain or isolate,method,value
C[C@@H](c1ncncc1F)[C@](O)(Cn1cncn1)c1ccc(F)cc1F,2038 (FLU-R),-,0.5 µg/mL
Cc1ccc(/C=C/C(=O)OC2CCN(CC(O)(Cn3cncn3)c3ccc(F)cc3F)CC2)cc1,Y0109,broth dilution,0.032 µM
C[C@H]1[C@H](O)[C@@H](C)/C=C/C=C/C=C/C=C/C=C/C=C/C=C/[C@H](O[C@@H]2O[C@H](C)[C@@H](O)[C@H](N)[C@@H]2O)C[C@@H]2O[C@](O)(C[C@@H](O)C[C@@H](O)CC[C@H](O)[C@@H](O)C[C@@H](O)CC(=O)O[C@H]1C)C[C@H](O)[C@H]2C(=O)O,ATCC 90028 (azole-susceptible),-,0.13 µg/mL
C[C@@H](N1CCN(Cc2cn(Cc3ccc(Cl)cc3Cl)c3c(Cl)cccc23)CC1)[C@](O)(Cn1cncn1)c1ccc(F)cc1F,ATCC 64548,resazurin,0.125 µg/mL
Cc1ccc(-c2c3c(N)c4c(nc3nc3c2c(C)nn3-c2ccccc2)CCCCC4)cc1,CCC 126,broth dilution / absorbance,62.5 µg/mL
CC(O)Cc1ccc(Cn2cc(CN3CCN([C@H](C)[C@](O)(Cn4cncn4)c4ccc(F)cc4F)CC3)c3ccccc32)cc1,ATCC 36082,resazurin,4 µg/mL
O=C(/C=C/c1ccccc1Cl)OC1CCN(CC(O)(Cn2cncn2)c2ccc(F)cc2F)CC1,Y0109,broth dilution,0.124 µM
Cc1ccc(-c2c3c(N)c4c(nc3nc3c2c(C)nn3-c2ccccc2)CCC4)cc1,CCC 129,broth dilution / absorbance,31.2 µg/mL
Oc1ccc2c(c1)CCc1ccc(O)c(c1)Oc1ccc(cc1)CCc1cccc(O)c1O2,SC5314,broth dilution,16 µg/mL
CC(=O)OC1CCN(CC(O)(Cn2cncn2)c2ccc(F)cc2F)CC1,Y0109,broth dilution,0.164 µM
OC(CN1CCN(c2ccc(OCc3ccncc3)cc2)CC1)(Cn1cncn1)c1ccc(F)cc1F,ATCC 76615,-,≤0.063 µg/mL
C[C@@H](N1CCN(Cc2c[nH]c3ccccc23)CC1)[C@](O)(Cn1cncn1)c1ccc(F)cc1F,ATCC 90028,resazurin,0.25 µg/mL
O=C(COc1cccc2ccccc12)OC1CCN(CC(O)(Cn2cncn2)c2ccc(F)cc2F)CC1,Y0109,broth dilution,0.479 µM
C[C@@H](N1CCN(Cc2cn(Cc3ccc(F)cc3)c3c(Cl)cccc23)CC1)[C@](O)(Cn1cncn1)c1ccc(F)cc1F,ATCC MYA-1003,resazurin,16 µg/mL
CC(C)C(=O)OC1CCN(CC(O)(Cn2cncn2)c2ccc(F)cc2F)CC1,Y0109,broth dilution,0.153 µM
C[C@@H](N1CCN(Cc2cn(Cc3ccc(Cl)cc3)c3ccccc23)CC1)[C@](O)(Cn1cncn1)c1ccc(F)cc1F,ATCC MYA-1003,resazurin,8 µg/mL
COc1ccc(/C=C/C(=O)OC2CCN(CC(O)(Cn3cncn3)c3ccc(F)cc3F)CC2)cc1,Y0109,broth dilution,0.031 µM
Cc1nn(-c2ccccc2)c2nc3nc4c(c(N)c3c(-c3ccc(Cl)cc3)c12)CCC4,ATCC 10231,broth dilution / absorbance,250 µg/mL
C[C@@H](N1CCN(Cc2cn(Cc3ccc(Cl)cc3Cl)c3c(F)cccc23)CC1)[C@](O)(Cn1cncn1)c1ccc(F)cc1F,ATCC 64548,resazurin,0.125 µg/mL
Cc1ccc(-c2c3c(N)c4c(nc3nc3c2c(C)nn3-c2ccccc2)CCCC4)cc1,CCC 127,broth dilution / absorbance,31.2 µg/mL
C[C@@H](N1CCN(Cc2cn(Cc3ccc(Cl)cc3Cl)c3ccc(C#N)cc23)CC1)[C@](O)(Cn1cncn1)c1ccc(F)cc1F,ATCC 64548,resazurin,0.25 µg/mL

Again, the opening 3 rows:

structure | strain or isolate | method | value
C[C@@H](c1ncncc1F)[C@](O)(Cn1cncn1)c1ccc(F)cc1F | 2038 (FLU-R) | - | 0.5 µg/mL
Cc1ccc(/C=C/C(=O)OC2CCN(CC(O)(Cn3cncn3)c3ccc(F)cc3F)CC2)cc1 | Y0109 | broth dilution | 0.032 µM
C[C@H]1[C@H](O)[C@@H](C)/C=C/C=C/C=C/C=C/C=C/C=C/C=C/[C@H](O[C@@H]2O[C@H](C)[C@@H](O)[C@H](N)[C@@H]2O)C[C@@H]2O[C@](O)(C[C@@H](O)C[C@@H](O)CC[C@H](O)[C@@H](O)C[C@@H](O)CC(=O)O[C@H]1C)C[C@H](O)[C@H]2C(=O)O | ATCC 90028 (azole-susceptible) | - | 0.13 µg/mL

Blank or dashed fields: not listed here. MIC50, MIC90 and the like: level of inhibition, or share of isolates inhibited.